A mixed list of measured activities; the numbers were collected in NIAID ChemDB.

All rows: growth or infection tests; agent: Mycobacterium avium; measure: MIC

Lines come from different laboratories, so protocols vary.

CCCCCCOc1ccc(NC(=O)OCCN(C)C)cc1 ; strain: MY330/88 ; value: 16 µM
Cc1ccc2oc(=O)n(-c3cccc(Cl)c3)c(=O)c2c1 ; strain: CNCTC MY330/88 ; value: 32 µM
COc1ccc(CSc2ncn[nH]2)cc1 ; strain: MY330/88 ; value: 1000 µM
Cc1ccc2oc(=O)n(-c3ccccc3)c(=S)c2c1 ; strain: MY330/88 ; conditions: 21 d ; value: 4 µM
COc1ccc(-n2c(=O)oc3cc(C)ccc3c2=O)cc1 ; strain: CNCTC MY330/88 ; value: 62 µM
CCCCCCOc1cccc(NC(=O)OCCN2CCCCCC2)c1 ; strain: MY330/88 ; value: 16 µM
CC(C)N=c1cc2n(-c3ccc(Cl)cc3)c3ccccc3nc-2cc1Nc1ccc(Cl)cc1 ; strain: 34540 ; value: 5 µg/mL
Cc1ccc(C(Cn2ccnc2)OCc2ccc(C(C)(C)C)cc2)cc1 ; strain: 103317 ; value: 2.87 µM
COc1ccc(-n2c(=O)oc3ccc(Cl)cc3c2=O)cc1 ; strain: CNCTC MY330/88 ; value: 31 µM
Cc1ccc2oc(=S)n(-c3cccc(F)c3)c(=S)c2c1 ; strain: MY330/88 ; conditions: 21 d ; value: 8 µM
COc1ccc2oc(=O)n(-c3ccc(C(F)(F)F)cc3)c(=O)c2c1 ; strain: CNCTC MY330/88 ; value: 32 µM
CCCCCCCOc1ccc(NC(=O)OCCN2CCOCC2)cc1 ; strain: MY330/88 ; value: 32 µM
Clc1ccc(CSc2ncn[nH]2)cc1Cl ; strain: MY330/88 ; value: 500 µM
O=c1oc2ccccc2c(=O)n1-c1ccc(Cl)c(Cl)c1 ; strain: CNCTC MY330/88 ; value: 16 µM
Clc1cccc(CSc2ncn[nH]2)c1 ; strain: MY330/88 ; value: 250 µM
Fc1ccc(-n2c(=S)oc3ccc(Cl)cc3c2=S)cc1 ; strain: MY330/88 ; conditions: 21 d ; value: 16 µM
c1ccc(/C(Cn2ccnc2)=N\OCc2cccc3ccccc23)cc1 ; strain: 103317 ; value: 23.4 µM
N#Cc1ccc(CSc2ncn[nH]2)cc1 ; strain: MY330/88 ; value: 500 µM
CN(C)c1ccc(-n2c(=O)oc3cc(Cl)ccc3c2=O)cc1 ; strain: CNCTC MY330/88 ; value: 62 µM
Fc1ccc(/C(Cn2ccnc2)=N\OCc2cccc3ccccc23)cc1 ; strain: 103317 ; value: 22.2 µM
COc1ccc2oc(=O)n(-c3ccc(F)cc3)c(=S)c2c1 ; strain: MY330/88 ; conditions: 14 d ; value: 32 µM
CCCCCCCOc1cccc(NC(=O)OCCN(C)C)c1 ; strain: MY330/88 ; value: 8 µM
O=C(Nc1ccccc1N1CCSCC1)c1ccc(Cl)cc1 ; strain: 103317 ; value: 92.3 µM
Cc1ccc2oc(=O)n(-c3cccc(Cl)c3)c(=S)c2c1 ; strain: MY330/88 ; conditions: 21 d ; value: 4 µM
Fc1ccc(C(Cn2ccnc2)NCc2cccc3ccccc23)cc1 ; strain: 103317 ; value: 92.6 µM
COc1ccc2oc(=O)n(-c3cccc(Cl)c3)c(=S)c2c1 ; strain: MY330/88 ; conditions: 21 d ; value: 62.5 µM
Clc1ccc(/C(Cn2ccnc2)=N\OCc2ccccc2)c(Cl)c1 ; strain: 103317 ; value: 22.2 µM
N#Cc1ccc(-n2c(=O)oc3cc(Cl)ccc3c2=O)cc1 ; strain: CNCTC MY330/88 ; value: 16 µM
C(=C\c1ccccc1)/CNc1ccccc1N1CCSCC1 ; strain: 103317 ; value: 98.8 µM
Fc1cccc(-n2c(=S)oc3ccc(F)cc3c2=S)c1 ; strain: MY330/88 ; conditions: 21 d ; value: 16 µM